Results of unrelated studies side by side (data: NIAID ChemDB).

Shared fields: tests in culture; species: Adenovirus

Inhibition is in % at the dose shown (toxicity tests: loss of growth or viability).

SMILES,strain or isolate,tested at,read-out,cells,read by,value
Cc1cc(-c2ccc(N=Nc3c(S(=O)(=O)O)cc4cc(S(=O)(=O)O)cc(N)c4c3O)c(C)c2)ccc1N=Nc1c(S(=O)(=O)O)cc2cc(S(=O)(=O)O)cc(N)c2c1O,TYPE 3,10 µg/mL,inhibition,Human amnion AV3 cells,cytopathic effect,0%
CSc1nsc(C2CCCCC2)c1C#N,TYPE 2,-,EC50,HEP-2,plaque count,>50 µM
O=S(=O)([O-])c1ccc2c(NS(=O)(=O)c3ccccc3)cc(S(=O)(=O)[O-])cc2c1,TYPE 3,10 µg/mL,inhibition,Human amnion AV3 cells,cytopathic effect,0%
Nc1ncnc2c1ncn2C[C@@H](CO)OCP(=O)(O)O,TYPE 4,-,MIC,-,-,0.3 µg/mL
COc1cc(O)c(/C=N/N=C(\N)NO)c(OC)c1.Cc1ccc(S(=O)(=O)O)cc1,ATCC (TYPE 8),-,EC50,A549,plaque count,100 µM
O=S(=O)([O-])c1ccccc1S(=O)(=O)[O-],TYPE 3,50 µg/mL,inhibition,Human embryonic lung cells,cytopathic effect,0%
CSc1nsc(-c2ccc(Cl)cc2Cl)c1C#N,TYPE 2,-,EC50,HEP-2,plaque count,>8 µM
O=S(=O)([O-])c1ccc2c(S(=O)(=O)[O-])cc(S(=O)(=O)[O-])cc2c1,TYPE 3,5 µg/mL,inhibition,Human embryonic lung cells,cytopathic effect,0%
CSc1nsc(-c2ccc(OS(=O)(=O)c3ccc(C)cc3)cc2)c1C#N,TYPE 2,-,EC50,HEP-2,plaque count,>25 µM
O=C(Nc1ccc2cc(S(=O)(=O)[O-])cc(S(=O)(=O)[O-])c2c1)c1ccccc1,TYPE 3,5 µg/mL,inhibition,Human amnion AV3 cells,cytopathic effect,0%
Nc1ccn(C[C@@H](CO)OCP(=O)(O)O)c(=O)n1,TYPE 3,-,MIC,-,-,3 µg/mL
Nc1nc2c(ccn2[C@@H]2C[C@H](CO)[C@@H](O)[C@@H]2O)c(=O)[nH]1,-,-,MIC,-,-,>100 µg/mL
COC(=O)[C@H]1[C@@H]2C[C@@H](O[C@@H]3O[C@H](C)[C@@H](O)[C@H](N)[C@@H]3O)/C=C/C=C/C=C/C=C/C=C/C=C/C=C/[C@H](C)[C@@H](O)[C@H](C)[C@H](C)OC(=O)C[C@H](O)C[C@H](O)[C@@H](O)CC[C@H](O)C[C@H](O)C[C@](O)(C[C@@H]1O)O2,TYPE 4,3.2 µg/mL,inhibition,HFF,plaque count,18%
Nc1cnn([C@@H]2O[C@H](CO)[C@@H](O)[C@H]2O)c(=O)n1,TYPE 5,0.5 µg/mL,inhibition,HEP-2,-,61%
CSc1nsc(-c2ccc(Cl)cc2)c1C#N,TYPE 2,-,EC50,HEP-2,plaque count,>5 µM
NC(N)=Nc1cccc(C(=O)NCC(=O)NC(CC(=O)O)c2cccnc2)c1,TYPE 2,100 µM,inhibition,HeLa,-,60%
CCCCOc1ccc(-c2snc(SC)c2C#N)cc1,TYPE 2,-,EC50,HEP-2,plaque count,>50 µM
Nc1ccn([C@H]2CC[C@@H](CO)O2)c(=O)n1,TYPE 8,-,EC50,HEP-2,-,4 µg/mL
CC1(C(=O)O)CCC2(C)CCC3(C)C(=CC(=O)C4C5(C)CCC(OC(=O)C6CCCCC6C(=O)O)C(C)(C)C5CCC43C)C2C1,TYPE 5,30 µM,inhibition,-,virus yield,85%
CSc1nsc(-c2ccc(OCc3ccccc3)cc2)c1C#N,TYPE 2,-,EC50,HEP-2,plaque count,>50 µM

Conditions beyond the fields shown may differ between rows. An empty or dashed field is not shown. ECn: concentration that inhibits the pathogen or its effect by n%.